Sequence variants of PSTVd loop 1 after infection

The pool varies loop 1 of the PSTVd intermediate strain in the pattern CNNNNG; wild type is CCUCGG (5' to 3', with the closing base pair).

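Three N. benthamiana plants were inoculated with the whole mutant pool. Progeny were sequenced from the inoculated region (day 5), the margin of the inoculated leaf (day 10) and systemic leaves (day 12).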

Numbers give reads per thousand; 0 = not seen among the reads, higher = more abundant. Each site shows the three plants. "Pool" is the share in the plasmid pool used as inoculum, on the same scale. The inoculated region was read from the minus strand, the other sites from the plus strand. The authors trace changes outside the varied positions to PCR and sequencing errors or to mutation in the plant; presence does not show that a variant is infectious alone.

CUCAUG (pool 4.77): inoculated region 3.14 / 2.62 / 2.86; leaf margin 0 / 0.0211 / 0; systemic leaves 0 / 0 / 0.
CAUGGG (pool 4.80): inoculated region 2.95 / 2.76 / 2.88; leaf margin 0.0199 / 0 / 0.0305; systemic leaves 0 / 0.0180 / 0.0658.
CUCCAG (pool 3.82): inoculated region 2.99 / 2.89 / 2.45; leaf margin 0 / 0 / 0; systemic leaves 0 / 0 / 0.0164.
CUGGCA (pool 0.0131): inoculated region 0 / 0 / 0; leaf margin 0 / 0 / 3.78; systemic leaves 0 / 0 / 1.27.
CGGACG (pool 4.14): inoculated region 2.92 / 3.13 / 2.84; leaf margin 0.0199 / 0 / 3.69; systemic leaves 0 / 0 / 1.40.
GCUCGG (pool 0.407): inoculated region 0.793 / 0.656 / 0.875; leaf margin 0.279 / 1.31 / 0.183; systemic leaves 0.934 / 4.62 / 4.45.
CCCCAG (pool 4.13): inoculated region 2.68 / 3.39 / 3.04; leaf margin 0 / 0.0211 / 0; systemic leaves 0 / 0 / 0.
CAUAGG (pool 3.26): inoculated region 2.82 / 2.81 / 2.61; leaf margin 0.0199 / 0.0211 / 0; systemic leaves 0.0203 / 0 / 0.0164.
CUAGAG (pool 3.48): inoculated region 2.84 / 2.87 / 2.61; leaf margin 0 / 0.0423 / 0.0305; systemic leaves 0 / 0 / 0.
CGUCAG (pool 4.34): inoculated region 3.17 / 3.17 / 2.84; leaf margin 0 / 0.0211 / 0; systemic leaves 0 / 0 / 0.0164.
CCAAAG (pool 3.53): inoculated region 2.79 / 2.85 / 2.64; leaf margin 0 / 0.0211 / 0; systemic leaves 0 / 0 / 0.
AAUGGG (pool 0.0131): inoculated region 0 / 0 / 0; leaf margin 0 / 0 / 0; systemic leaves 0 / 0 / 0.
ACUCGG (pool 0.197): inoculated region 0.424 / 0.319 / 0.625; leaf margin 0.498 / 0.676 / 13.8; systemic leaves 4.73 / 4.87 / 4.60.
CUCUGG (pool 3.61): inoculated region 3.04 / 2.81 / 2.73; leaf margin 0.0199 / 0 / 0; systemic leaves 0 / 0 / 0.
CUGUGG (pool 3.30): inoculated region 3.16 / 3.00 / 2.32; leaf margin 0 / 0 / 0; systemic leaves 0 / 0 / 0.
CAGGCG (pool 3.76): inoculated region 2.97 / 2.68 / 2.59; leaf margin 0.0199 / 0 / 0; systemic leaves 0 / 0 / 0.0493.
CUCUCG (pool 3.71): inoculated region 3.14 / 2.55 / 2.45; leaf margin 0 / 0 / 0; systemic leaves 0 / 0 / 0.
CUACUG (pool 3.15): inoculated region 2.82 / 2.68 / 2.50; leaf margin 0 / 0 / 0; systemic leaves 0 / 0 / 0.
CUUUCG (pool 3.93): inoculated region 2.58 / 2.87 / 2.70; leaf margin 0 / 0 / 0; systemic leaves 0 / 0 / 0.
AUAUUG (pool 0.0131): inoculated region 0 / 0 / 0; leaf margin 0 / 0 / 0; systemic leaves 0 / 0 / 0.
CCUUAG (pool 3.59): inoculated region 2.80 / 2.53 / 2.47; leaf margin 0 / 0.0211 / 0.0305; systemic leaves 0 / 0 / 0.
CAGGAG (pool 3.57): inoculated region 3.06 / 2.34 / 2.84; leaf margin 0 / 0 / 3.78; systemic leaves 0 / 0 / 1.40.
CCCACG (pool 3.57): inoculated region 2.92 / 3.04 / 3.16; leaf margin 0 / 0.0211 / 0.0305; systemic leaves 0 / 0 / 0.
CCGAAG (pool 4.10): inoculated region 2.88 / 3.07 / 2.88; leaf margin 0 / 0.0211 / 0.0305; systemic leaves 0 / 0 / 0.0658.
CCACCG (pool 4.13): inoculated region 2.71 / 2.51 / 2.63; leaf margin 0.0199 / 0 / 3.35; systemic leaves 0 / 0 / 1.33.
CGUAGG (pool 3.36): inoculated region 2.71 / 2.57 / 2.72; leaf margin 0 / 0 / 0; systemic leaves 0 / 0 / 0.
CGCAAG (pool 4.43): inoculated region 3.04 / 2.62 / 2.22; leaf margin 0 / 0 / 0.0610; systemic leaves 0 / 0 / 0.0164.
CAAGUG (pool 4.02): inoculated region 3.23 / 2.66 / 2.52; leaf margin 0 / 0.0423 / 0; systemic leaves 0 / 0 / 0.0493.
CCUGCG (pool 4.10): inoculated region 2.84 / 2.61 / 2.88; leaf margin 0 / 0 / 0.0305; systemic leaves 0 / 0 / 0.
GGUGUG (pool 0.0131): inoculated region 0 / 0 / 0; leaf margin 0 / 0 / 0; systemic leaves 0 / 0 / 0.
CGGGGC (pool 0.0131): inoculated region 0.0185 / 0 / 0; leaf margin 0 / 0 / 0; systemic leaves 0.0203 / 0.0180 / 0.
CGGCCG (pool 3.99): inoculated region 2.77 / 2.57 / 2.55; leaf margin 0 / 0 / 0; systemic leaves 0 / 0 / 0.0164.
CACUAG (pool 4.51): inoculated region 2.77 / 2.77 / 3.34; leaf margin 0 / 0.0211 / 0; systemic leaves 0 / 0 / 0.
CGGUCG (pool 4.13): inoculated region 2.73 / 2.49 / 2.88; leaf margin 15.8 / 7.54 / 8.26; systemic leaves 0 / 0 / 1.15.
CAUCGG (pool 4.30): inoculated region 32.0 / 23.8 / 43.6; leaf margin 24.8 / 35.9 / 23.0; systemic leaves 4.73 / 4.38 / 3.78.

The first 3 entries again:

CUCAUG (pool 4.77) read inoculated region 3.14 / 2.62 / 2.86; leaf margin 0 / 0.0211 / 0; systemic leaves 0 / 0 / 0.
CAUGGG (pool 4.80) read inoculated region 2.95 / 2.76 / 2.88; leaf margin 0.0199 / 0 / 0.0305; systemic leaves 0 / 0.0180 / 0.0658.
CUCCAG (pool 3.82) read inoculated region 2.99 / 2.89 / 2.45; leaf margin 0 / 0 / 0; systemic leaves 0 / 0 / 0.0164.

Wild type was 20.1 per thousand in the pool and the most common sequence in every sample (inoculated region 197, 219, 222; leaf margin 828, 823, 779; systemic leaves 914, 907, 857). Samples held 32,791 to 60,834 reads, so the smallest values rest on one or two reads.

Source: Wu et al. 2024 (doi:10.1371/journal.ppat.1012142), supplementary data.